Data published in paper PMC3351407.

How the values were obtained:
[1] = biological target: HIV-1 clade C Env 2-3.J7 (HIV-1 (clade C))
[2] = biological target: HIV-1 Env Q461.e2 (HIV-1 (clade A))
[3] = biological target: HIV-1 clade A Env Q259ENVd2.17 (HIV-1 (clade A))
[4] = biological target: HIV-1 clade C Env 4.J2 (HIV-1 (clade C))
[5] = biological target: HIV-1 A/G recombinant Env CRF02_AG-235 (HIV-1 (A/G recombinant))
[6] = biological target: HIV-1 Env TND_L669 (HIV-1 (clade B))
[7] = biological target: HIV-1 clade C Env 4.J22 (HIV-1 (clade C))

Question: Which IC50 of neutralisation of Env-pseudotyped virus by sCD4 in TZM-bl cells (luciferase); sCD4 interferes with the Env-CD4 interaction [1] does the source give for “soluble CD4 (from UniProt P01730 26-396) (receptor)” here?
Answer: > 25 µg/mL

Question: And the IC50 of neutralisation of Env-pseudotyped virus by sCD4 in TZM-bl cells (luciferase); control Env tested in parallel [2]?
Answer: > 25 µg/mL

Question: And the IC50 of neutralisation of Env-pseudotyped virus by sCD4 in TZM-bl cells (luciferase); sCD4 interferes with the Env-CD4 interaction [3]?
Answer: > 25 µg/mL

Question: What about the IC50 of neutralisation of Env-pseudotyped virus by sCD4 in TZM-bl cells (luciferase); sCD4 interferes with the Env-CD4 interaction [4] of the same substance?
Answer: 0.625 µg/mL

Question: What about the IC50 of neutralisation of Env-pseudotyped virus by sCD4 in TZM-bl cells (luciferase); sCD4 interferes with the Env-CD4 interaction [5] of the same substance?
Answer: > 25 µg/mL

Question: What about the IC50 of neutralisation of Env-pseudotyped virus by sCD4 in TZM-bl cells (luciferase); control Env tested in parallel [6] of the same substance?
Answer: 10 µg/mL

Question: What about the neutralisation of Env-pseudotyped virus by sCD4 in TZM-bl cells [7] of the same substance?
Answer: > 25 µg/mL
